Target: R3N_2D3
Assay: ELISA

B1: soluble E80 protein of DENV-1 (domain or fragment)
chain: not shown
Kd: 0.037 nM
